Measured values: patent US6340676B2, “4-aryl-1-oxa-9-thia-cyclopenta (b) fluorenes” (American Home Products Corporation, priority 1998, dated 2002)

By UniProt entry, the sequences of proteins in these tests, tags left out. Where a name states a change or a piece, a line headed by the entry shows the natural chain unless it says otherwise.
UniProt P18031: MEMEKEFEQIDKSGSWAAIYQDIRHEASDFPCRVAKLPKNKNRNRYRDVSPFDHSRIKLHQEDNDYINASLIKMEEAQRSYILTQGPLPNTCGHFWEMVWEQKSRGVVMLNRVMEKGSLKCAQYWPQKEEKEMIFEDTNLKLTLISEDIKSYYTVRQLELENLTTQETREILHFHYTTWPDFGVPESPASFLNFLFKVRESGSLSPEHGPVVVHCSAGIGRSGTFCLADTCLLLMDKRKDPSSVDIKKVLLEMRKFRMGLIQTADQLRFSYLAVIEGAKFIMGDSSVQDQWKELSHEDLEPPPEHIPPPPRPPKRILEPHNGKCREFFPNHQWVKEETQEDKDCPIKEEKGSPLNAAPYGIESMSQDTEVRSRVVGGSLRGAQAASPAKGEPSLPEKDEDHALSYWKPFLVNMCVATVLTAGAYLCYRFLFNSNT

Legend:
Human recombinant PTP1B = Human recombinant PTP1B (Homo sapiens, UniProt P18031); test: Inhibition of tri-phosphorylated insulin receptor dodecaphosphopeptide dephosphorylation by hPTP1B; type: biochemical
[1] = system: rat hepatic microsomal PTPases; test: Inhibition of tri-phosphorylated insulin receptor dodecaphosphopeptide dephosphorylation by rat hepatic PTPases; conditions: PTPase activity; compounds at 50 μM

Substance: Phenylarsine oxide
- IC50 (Human recombinant PTP1B): 39.7 µM
- % Change from Control [1]: −57.06%
